Results of unrelated studies side by side (data: NIAID ChemDB).

Shared fields: target-level tests; species: HIV-1; protein: Reverse transcriptase; endpoint: fold resistance

An empty or dashed field is not shown. Fold resistance: result on the changed form divided by that on wild type. Rows are shuffled and stem from different studies.

Nc1nc2c(ncn2[C@H]2CC[C@@H](COP(=O)(O)OP(=O)(O)OP(=O)(O)O)O2)c(=O)[nH]1 ; changes: RT-E138K ; value: 0.293
Cc1cn([C@H]2C=C[C@@H](COP(=O)(O)OP(=O)(O)OP(=O)(O)O)O2)c(=O)[nH]c1=O ; changes: RT-M184V ; value: 38.46
c1ccc(C2SCc3nc4ccccc4n32)cc1 ; changes: RT-V108I ; value: ~1.5
Cc1cn([C@H]2CC[C@@H](COP(=O)(O)OP(=O)(O)OP(=O)(O)O)O2)c(=O)[nH]c1=O ; changes: RT-M184V ; value: 2.53
CCc1c(Sc2ccccn2)n(COCc2ccccc2)c(=O)[nH]c1=O ; changes: RT-L100I ; value: 1
CCNc1cccnc1N1CCN(C(=O)c2cc3cc4c(cc3[nH]2)OCO4)CC1 ; strain: IIIB ; changes: RT-P236L ; value: 20
O=P(O)(O)OP(=O)(O)O ; changes: RT-Q161L H208Y ; value: 2.9
C/C=C/CSc1cc(NC(=S)c2ccsc2C)ccc1Cl ; changes: RT-Y181I ; value: 4.73
Cc1c(Cc2c(Cl)cccc2Cl)nc(Sc2ccccc2)[nH]c1=O ; changes: Y181I ; value: >11
Cc1occc1C(=S)Nc1ccc(Cl)c(/C=N/OC(C)(C)C)c1 ; changes: RT-L74V ; value: 1.11
Cc1c(Cc2c(F)cccc2F)nc(Sc2ccc(F)cc2F)[nH]c1=O ; changes: RT-K103N ; value: >13.3
CN(C)P(=O)(c1ccccc1)c1c(C(N)=O)[nH]c2ccc(Cl)cc12 ; changes: RT-Y181C ; value: >3.57
CCOc1ccccc1N1CCN(C(=O)c2cc3cc4c(cc3[nH]2)OCO4)CC1 ; strain: IIIB ; changes: RT-P236L ; value: >8.93
COc1ccc(Sc2nc(Cc3c(Cl)cccc3Cl)c(C)c(=O)[nH]2)cn1 ; changes: Y181I ; value: >114
Cc1cn([C@@H]2C=C[C@H](COP(=O)(O)OP(=O)(O)OP(=O)(O)O)O2)c(=O)[nH]c1=O ; changes: RT-M184V ; value: 107
CC(C)=CCN1Cc2cccc3[nH]c(=S)n(c23)C[C@@H]1C ; changes: RT-E138K ; value: 2.37
CC(C)Nc1cccnc1N1CCN(C(=O)c2cc3cc4c(cc3[nH]2)OCO4)CC1 ; strain: IIIB ; changes: RT-P236L ; value: 7.5
Cc1c(Cc2c(Cl)cccc2Cl)nc(Sc2ccc(C#N)cc2)[nH]c1=O ; changes: RT-K103N ; value: >17.4
CC(C)=CCOc1cc(NC(=S)c2ccoc2C)ccc1Cl ; changes: RT-L74V ; value: 0.63
CNc1ccc(Cl)cc1S(=O)(=O)c1ccccc1[N+](=O)[O-] ; changes: RT-P236L ; value: 0.00455
Cc1c(Cc2c(F)cccc2F)nc(Sc2ccccc2)[nH]c1=O ; changes: Y181I ; value: >12.5

For reference, 3 entries again:

smiles,strain,changes,value
Cc1occc1C(=S)Nc1ccc(Cl)c(/C=N/OC(C)(C)C)c1,,RT-L74V,1.11
Cc1c(Cc2c(F)cccc2F)nc(Sc2ccc(F)cc2F)[nH]c1=O,,RT-K103N,>13.3
Cc1c(Cc2c(Cl)cccc2Cl)nc(Sc2ccccc2)[nH]c1=O,,Y181I,>11